Mutational scan of HIV-1 Vif (LAI) in cells with APOBEC3G

From the data files of Langley et al. 2025, preprint, doi:10.1101/2025.10.20.683452.

Vif of LAI (a laboratory-adapted subtype B strain), residues 12-115; positions count from the first residue of the whole protein:
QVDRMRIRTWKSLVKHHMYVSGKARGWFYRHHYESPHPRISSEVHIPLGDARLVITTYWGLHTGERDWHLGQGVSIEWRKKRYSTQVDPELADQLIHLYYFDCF

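A pool of vif mutants was passaged twice, 72 h each, on SupT1 cells that express APOBEC3G. Each of three replicates was sequenced after round two and set against the merged round-one pool. Changes do not touch integrase, since the pol overlap was removed.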

Scale: log2 enrichment, wild type = 0; negative values mean that the variant was depleted. Each entry names the wild-type residue, its position and the residue put in its place. The median of three replicates is given. Input reads are the counts in the merged round-one pool, before selection. Positive scores are uncertain; some enriched variants did not exclude APOBEC3G in a separate test.

change,input reads,log2 enrichment (median)
P100C,19,-0.05
Q97I,42,3.67
G33D,556,-3.72
L72Y,32,-2.37
L24T,321,-2.24
Y30P,463,-1.30
W21E,29,-2.67
V85K,122,0.18
M29S,78,0.89
D104S,98,-3.15
S86T,414,-0.32
L24N,129,0.91
D113I,18,1.25
D104K,91,-4.26
T67R,22,0.23
R17I,406,-3.02
E76I,462,-4.64
V31A,537,-1.37
A103V,608,-3.60
Y111A,168,-2.40
W70I,105,-1.38
H108P,151,-3.80
S46Q,520,-2.92
R77D,876,-2.29
Y40P,536,-1.93
S52Y,1035,-3.20
I87K,482,-1.16
D99E,74,0.02
K34C,473,-3.40
Y69K,430,-3.12
D61H,416,-3.83
S46W,470,0.29
R17Y,951,-3.61
G75S,46,2.38
K22Q,51,0.18
D104E,53,1.42
D61P,276,-2.67
F112M,219,-2.43
H28Q,394,2.37
G82R,54,0.32
D78N,93,0.84
T96S,335,-1.94
K92E,1110,-1.62
V25Q,30,-0.70
H73V,773,-1.44
G84T,25,0.80
D113R,365,-2.27
Y40T,22,-0.90
Y111L,74,-1.24
D78K,457,-1.35
V98N,366,-3.18
W79N,469,-3.07
Y44D,516,-0.75
T67D,434,-0.39
W89C,99,-0.40
G37R,1099,-1.59
E54D,490,-3.06
S86A,40,1.85
S23R,719,0.80
D104F,476,-3.56
E101S,107,-3.36
Q83R,669,1.08
P49T,42,0.70
F112A,39,1.52
W79C,72,-1.69
T74Y,57,4.29
S23D,19,0.06
K91Q,395,-2.44
W70L,34,0.71
E76D,72,2.52
L24A,459,-3.89
Q97V,411,-3.31
E45T,339,-3.42
M16A,669,-2.30
M29D,768,-1.64
K26F,35,2.77
R77H,488,-1.96
M29L,439,-2.66
Q12I,448,-2.70
W70Y,421,-2.64
E45W,113,0.36
R15L,471,-2.31
V65Q,187,-3.75
H27P,1428,-1.09
T67L,152,-0.42
G75F,365,-3.84
E76S,969,-2.16
D104C,823,-0.18
E76K,967,-3.37
L59D,440,-4.56
Q105F,50,-1.87
T20A,56,1.15
T74E,21,2.31
A35S,464,-0.87
R17N,38,1.32

Replicates agree only moderately (rank correlation about 0.4-0.65); scores from under about 50 input reads tend to be too high. Some changes are missing from the data or left out.